Seven sequences from patent publication US20150018228A1, “ENZYME DETECTION BY MICROFLUIDICS” (priority 2011, published 2015) can be followed below.

In series [1] the target is T1, Plasmodium falciparum topoisomerase I (endogenous, infected blood) (Plasmodium falciparum) (UniProt Q26024).
T1 sequence (looked up, limits assumed): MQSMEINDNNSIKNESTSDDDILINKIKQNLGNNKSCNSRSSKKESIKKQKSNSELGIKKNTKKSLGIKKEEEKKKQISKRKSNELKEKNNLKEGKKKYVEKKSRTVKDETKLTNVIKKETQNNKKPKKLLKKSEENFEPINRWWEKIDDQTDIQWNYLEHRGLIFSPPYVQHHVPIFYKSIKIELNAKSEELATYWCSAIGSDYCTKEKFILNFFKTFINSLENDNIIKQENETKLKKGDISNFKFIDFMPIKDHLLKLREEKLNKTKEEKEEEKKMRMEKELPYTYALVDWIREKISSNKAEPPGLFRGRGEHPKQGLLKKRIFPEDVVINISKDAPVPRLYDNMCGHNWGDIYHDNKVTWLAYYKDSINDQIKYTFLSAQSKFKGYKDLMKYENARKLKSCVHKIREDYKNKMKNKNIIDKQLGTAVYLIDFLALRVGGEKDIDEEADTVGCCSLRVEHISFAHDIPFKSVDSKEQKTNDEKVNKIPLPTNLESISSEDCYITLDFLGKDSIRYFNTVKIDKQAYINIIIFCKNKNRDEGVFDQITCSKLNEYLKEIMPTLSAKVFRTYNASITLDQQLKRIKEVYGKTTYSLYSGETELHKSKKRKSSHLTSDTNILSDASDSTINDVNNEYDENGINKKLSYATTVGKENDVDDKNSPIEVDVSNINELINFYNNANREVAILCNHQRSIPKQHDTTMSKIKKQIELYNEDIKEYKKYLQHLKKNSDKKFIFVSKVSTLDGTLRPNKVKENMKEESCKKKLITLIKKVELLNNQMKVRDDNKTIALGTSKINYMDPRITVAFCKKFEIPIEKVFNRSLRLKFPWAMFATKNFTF
Put plainly: activity assay. The following applies: REEAD signal only with extract of P. falciparum-infected blood; protein in an extract; folded or branched DNA.

Series [2] has as its system Plasmodium falciparum topoisomerase I (pfTopI) (Plasmodium falciparum). Put plainly: activity assay. Particulars: purified recombinant protein, folded or branched DNA.
Series [3] has the same test system. The experiment in a line: enzyme reaction in vitro. Particulars: cleaves hTopI site plus additional sites close to 3'-end; 10 mM Tris pH 7.5, 5 mM MgCl2, 5 mM CaCl2, 37 C, with or without 60 uM CPT; purified recombinant protein; label: 5'-32P on OL62.
Where [4] appears, read: circularization by REEAD, less efficient than S1.

For some assays here: The exact form of at least one protein or probe is not confirmed. For some assays here: Protein sequences can lack the tags named with them.

As to “TCTAGAAAGTATAGGAACTTCGAACGACTCAGAATGACTGTGAAGATCGCTTATCCTCAATGCACATGTTTGGCTCCCATTCTGAGTCGTTCGAAGTTCCTATACTTT [pfTopI(S1)]”, the “activity on this sequence” value in series [1] is recorded as “active”; in series [2] (cleavage-ligation circularization detected by RCA (REEAD), most efficient of S1-S5, 5 mM EDTA, 37 C) it was “active”.

“AGAAAAATTTTTAAAAAAACTGTGAAGATCGCTTATTTTTTTAAAAATTTTTCTAAGTCTTTTAGATCCCTCAATGCTGCTGCTGTACTACGATCTAAAAGACTTAGA [S(TopI)]”: in series [2] (3'-amine (as printed in sequence list), circularization by REEAD, pfTopI more salt tolerant than hTopI), the “activity on this sequence” value is “active”.

Regarding “ATTTTTCTAAGTCTTTTAGATCGAACGACTCAGAATGACTGTGAAGATCGCTTATCCTCAATGCACATGTTTGGCTCCCATTCTGAGTCGTTCGATCTAAAAGACTTAGA [pfTopI(S5)]”, the “activity on this sequence” value in series [2] (setting [4]) is “active”.

In the case of “GCCTGCAGGTCGACTCTAGAGGATCTAAAAGACTTAGAAAAATTTTTAGGCTCAATCTAGAAGTTCCTACTTAGA / ATTTTTCTAAGTAGGAACTTCTAGATTGAGCCTAAAAATTTTTCTAAGTCTTTTAGATCCTCTAGAGTCGACCTGCAGGC [OL62/OL63]”, the “activity on this sequence” value in series [3] was “active”.

For “ATTATAATTTTTTGGAACTTCGAACGACTCAGAATGACTGTGAAGATCGCTTATCCTCAATGCACATGTTTGGCTCCCATTCTGAGTCGTTCGAAGTTCCAAAAAATT [pfTopI(S3)]”, the “activity on this sequence” value in series [2] (setting [4]) is on record as “active”.

Consider “TTATAATTTTTTGGAACTTCGAACGACTCAGAATGACTGTGAAGATCGCTTATCCTCAATGCACATGTTTGGCTCCCATTCTGAGTCGTTCGAAGTTCCAAAAAATT [pfTopI(S4)]”, for which the “activity on this sequence” value in series [2] (setting [4]) is listed as “active”.

“CATACATTATACGAAGTTATGAGCGTCTGAGTATGACTGTGAAGATCGCTTATCAGTGAATGCGAGTCCGTCTACTCATACTCAGACGCTCATAACTTCGTATAATGT [pfTopI(S2)]”: the “activity on this sequence” value in series [2] (setting [4]) is listed as “active”.
